From article PMC7034072, “Discovery of small molecule inhibitors of Leishmania braziliensis Hsp90 chaperone” (Journal of Enzyme Inhibition and Medicinal Chemistry, 2020) come the findings set out here.

Amino acid sequences for entries named in this document (tags omitted). Residues count along the entry.
UniProt A4HL70, 1-704: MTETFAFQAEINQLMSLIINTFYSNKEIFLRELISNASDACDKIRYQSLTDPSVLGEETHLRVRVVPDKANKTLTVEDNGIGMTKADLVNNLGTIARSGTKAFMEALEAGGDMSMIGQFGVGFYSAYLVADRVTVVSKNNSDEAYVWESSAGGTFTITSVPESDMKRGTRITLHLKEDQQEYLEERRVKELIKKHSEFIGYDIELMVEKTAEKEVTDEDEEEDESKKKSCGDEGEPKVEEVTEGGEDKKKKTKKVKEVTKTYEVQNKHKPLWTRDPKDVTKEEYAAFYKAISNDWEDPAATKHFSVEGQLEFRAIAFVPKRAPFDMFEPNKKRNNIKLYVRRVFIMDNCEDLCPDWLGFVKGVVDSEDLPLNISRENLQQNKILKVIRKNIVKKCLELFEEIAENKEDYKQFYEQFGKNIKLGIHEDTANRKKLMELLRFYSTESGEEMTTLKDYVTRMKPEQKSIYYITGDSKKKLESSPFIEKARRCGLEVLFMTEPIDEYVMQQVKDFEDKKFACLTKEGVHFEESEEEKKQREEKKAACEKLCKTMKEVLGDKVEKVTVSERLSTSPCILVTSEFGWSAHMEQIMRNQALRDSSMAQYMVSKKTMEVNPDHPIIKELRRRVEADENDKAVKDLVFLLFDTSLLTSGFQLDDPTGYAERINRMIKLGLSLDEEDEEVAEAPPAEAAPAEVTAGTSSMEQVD

The assay deals with LbHsp90 (Leishmania braziliensis, UniProt A4HL70). As to the kind of experiment: ATPase activity inhibition assay (EnzChek Pi quantification). It counts as biochemical. Particulars: 50 μM compound, 2 μM enzyme, 2.5 mM ATP. The protocol:
The ATPase activity of LbHsp90 and hHsp90β was evaluated spectrophotometrically through inorganic phosphate (Pi) quantification following ATP hydrolysis, by the EnzChek™ assay kit (Invitrogen®) as previous described[31]^,[34]. Briefly, a 2 µM solution of LbHsp90 and hHsp90β enzymes was prepared in 150 mM NaCl, 5 mM MgCl2 and 20 mM Tris-HCl, pH 7.5, and incubated with ATP (concentration range 0–5 mM) for 60 min at 37 °C. Then, the chromogenic substrate 2-amino-6-mercapto 7-methyl purine riboside (MESG) and the purine nucleoside phosphorylase (PNP) were added and the resulting reaction mixture was incubated for 30 min at 37 °C. The assays were performed in a 96-well plate and kinetic parameters determined by Michaelis–Menten fitting using GraphPad Prism 6 software.
The inhibitory activity against LbHsp90 and hHsp90β of compounds showing interaction in DSF assays (namely Glb08, Glb15, Gl23, Glb25 and Glb27) was determined using spectrophotometric ATPase activity assays as described above. […] A compound concentration ranging from 1 to 75 μM was included in the reaction mixture and Pi quantification performed as previously described (measurements were performed in triplicate). IC50 values were determined by non-linear regression data fitting (using GraphPad Prism 6 software).

SMILES strings stand for the structures. The source holds more than one record for some entries. This list holds those alone. There may be further records. The values listed for one entry differ, and nothing given here explains why; dose, time, organism, isomer or construct need not be as stated for each record.

For `N=C(N)N/N=C/c1cnn(Cc2ccccc2)c1`, the “percentage inhibition of LbHsp90 ATPase activity” value is “more than 90% and around 90%”.
